Assay results as given in ChEMBL document CHEMBL3286172, “Exploring the role of 2-chloro-6-fluoro substitution in 2-alkylthio-6-benzyl-5-alkylpyrimidin-4(3H)-ones: effects in HIV-1-infected cells and in HIV-1 reverse transcriptase enzymes” (J Med Chem, 2014).

Legend:
[1] = test system: Human immunodeficiency virus type 1 reverse transcriptase (Human immunodeficiency virus 1), Q72547 [L100I]
[2] = test system: Human immunodeficiency virus type 1 reverse transcriptase (Human immunodeficiency virus 1), Q72547 [Y181I]
[3] = test system: Human immunodeficiency virus 1; assay: Fold resistance, ratio of EC50 for HIV-1 harboring NNTRI-resistant reverse transcriptase Y188L mutant infected in human MT4 cells to EC50 for wild type HIV-1 NL4-3 infected in human MT4 cells; assay type: functional
Summary of the method: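 HIV-1 NL4-3 (wt) or Y188L mutant infection of MT-4 cells across a range of drug concentrations. Viable cells were counted by MTT at day 5 post-infection. […] Fold resistance is mutant EC50 over wt EC50. Means of at least two experiments.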

[4] = test system: Human immunodeficiency virus 1; assay: Fold resistance, ratio of EC50 for HIV-1 harboring NNTRI-resistant reverse transcriptase Y181C mutant infected in human MT4 cells to EC50 for wild type HIV-1 NL4-3 infected in human MT4 cells; assay type: functional
Summary of the method: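 MT-4 cells infected with HIV-1 mutant (K103N or Y181C) or wild-type NL4-3, with drug present. […] Fold resistance is the mutant EC50 divided by the wild-type NL4-3 EC50. EC50 values are means of at least two experiments.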

[5] = test system: Human immunodeficiency virus 1; assay: Fold resistance, ratio of EC50 for HIV-1 harboring NNTRI-resistant reverse transcriptase K103N mutant infected in human MT4 cells to EC50 for wild type HIV-1 NL4-3 infected in human MT4 cells; assay type: functional
[6] = test system: Human immunodeficiency virus 1; assay: Fold resistance, ratio of ID50 for HIV-1 recombinant NNTRI-resistant reverse transcriptase L100I mutant to ID50 for wild type HIV-1 recombinant reverse transcriptase
Summary of the method: (§1)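 Recombinant wt or mutant HIV-1 RT, purified to >95%, at 2-4 nM. RNA-dependent DNA polymerase activity with 0.5 µg poly(rA)/oligo(dT)10:1 (0.3 µM 3'-OH ends), 10 µM [3H]-dTTP and 8% final DMSO. Incorporation was sampled at 2-min intervals. ID50 came from fitting to a fully non-competitive model. Ratio is ID50 mutant/ID50 wt. Means of at least three experiments.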

[7] = test system: Human immunodeficiency virus 1; assay: Fold resistance, ratio of ID50 for HIV-1 recombinant NNTRI-resistant reverse transcriptase Y181I mutant to ID50 for wild type HIV-1 recombinant reverse transcriptase
Summary of the method: as §1

SMILES: CC[C@H](C)Sc1nc([C@@H](C)c2c(F)cccc2Cl)cc(=O)[nH]1
- ID50 [1]: 2.22 µM
- ID50 [2]: > 20 µM
- pID50 [2]: < 4.7

SMILES: CC[C@@H](C)Sc1nc([C@H](C)c2c(F)cccc2Cl)cc(=O)[nH]1
- ID50 [1]: 0.0687 µM
- ID50 [2]: 14.1 µM
- pID50 [2]: 4.85

SMILES: CC[C@@H](C)Sc1nc([C@@H](C)c2c(F)cccc2Cl)cc(=O)[nH]1
- ID50 [1]: 0.148 µM
- ID50 [2]: > 20 µM
- pID50 [2]: < 4.7

SMILES: Cc1c([C@H](C)c2c(F)cccc2Cl)nc(SC(C)C)[nH]c1=O
- Ratio EC50 [3]: 11667
- ID50 [1]: 0.177 µM
- Ratio EC50 [4]: 5000
- ID50 [2]: 21.2 µM
- Ratio EC50 [5]: 333

SMILES: Cc1c([C@@H](C)c2c(F)cccc2Cl)nc(SC(C)C)[nH]c1=O
- ID50 [1]: 1.49 µM
- Ratio [6]: 0.4
- ID50 [2]: > 40 µM

SMILES: CC[C@@H](C)Sc1nc([C@H](C)c2c(F)cccc2Cl)c(C)c(=O)[nH]1
- Ratio EC50 [3]: 351
- ID50 [1]: 0.041 µM
- Ratio EC50 [4]: 79
- ID50 [2]: 3.55 µM
- pID50 [2]: 5.45
- Ratio EC50 [5]: 14

SMILES: CC[C@@H](C)Sc1nc([C@@H](C)c2c(F)cccc2Cl)c(C)c(=O)[nH]1
- Ratio EC50 [3]: 3006
- ID50 [1]: 0.524 µM
- Ratio EC50 [4]: 811
- ID50 [2]: > 40 µM
- pID50 [2]: < 4.4
- Ratio EC50 [5]: 135

SMILES: CC[C@H](C)Sc1nc([C@@H](C)c2c(F)cccc2Cl)c(C)c(=O)[nH]1
- ID50 [1]: 0.913 µM
- ID50 [2]: > 40 µM
- pID50 [2]: < 4.4

SMILES: CCC(c1nc(SC(C)C)[nH]c(=O)c1C)c1c(F)cccc1F (racemic)
- ID50 [2]: 4.1 µM

SMILES: CCC(C)Sc1nc(C(CC)c2c(F)cccc2F)c(C)c(=O)[nH]1 (racemic)
- ID50 [2]: 4 µM

SMILES: CCC(c1nc(SC2CCCC2)[nH]c(=O)c1C)c1c(F)cccc1F (racemic)
- ID50 [2]: 4.9 µM

SMILES: CC(C)Sc1nc(C(C)c2c(F)cccc2Cl)cc(=O)[nH]1 (racemic)
- ID50 [2]: 10 µM

SMILES: CCCSc1nc(C(C)c2c(F)cccc2Cl)cc(=O)[nH]1 (racemic)
- ID50 [2]: 15 µM

SMILES: CCC(C)Sc1nc(C(C)c2c(F)cccc2Cl)cc(=O)[nH]1 (racemic)
- ID50 [1]: 0.2 µM
- ID50 [2]: 21.1 µM

SMILES: CCCCSc1nc(C(C)c2c(F)cccc2Cl)cc(=O)[nH]1 (racemic)
- Ratio EC50 [3]: 18667
- Ratio [7]: 1520
- Ratio EC50 [4]: 13000
- ID50 [2]: 15.2 µM
- Ratio EC50 [5]: 3667

SMILES: CC(c1cc(=O)[nH]c(SC2CCCC2)n1)c1c(F)cccc1Cl (racemic)
- ID50 [2]: 16.6 µM

SMILES: Cc1c(C(C)c2c(F)cccc2Cl)nc(SC(C)C)[nH]c1=O (racemic)
- Ratio EC50 [3]: 113333
- Ratio EC50 [4]: 8333
- Ratio EC50 [5]: 4667

SMILES: CCC(C)Sc1nc(C(C)c2c(F)cccc2Cl)c(C)c(=O)[nH]1 (racemic)
- ID50 [1]: 0.075 µM
- Ratio EC50 [4]: 1300
- ID50 [2]: 35 µM
- Ratio EC50 [5]: 1067

SMILES: CCCCSc1nc(C(C)c2c(F)cccc2Cl)c(C)c(=O)[nH]1 (racemic)
- ID50 [2]: 60 µM

SMILES: CCc1c(C(C)c2c(F)cccc2Cl)nc(SC(C)C)[nH]c1=O (racemic)
- ID50 [2]: 27 µM

SMILES: CCCSc1nc(C(C)c2c(F)cccc2Cl)c(CC)c(=O)[nH]1 (racemic)
- ID50 [2]: 4.7 µM

SMILES: CCc1c(C(C)c2c(F)cccc2Cl)nc(SC(C)CC)[nH]c1=O (racemic)
- ID50 [2]: 16.2 µM

SMILES: CCCCSc1nc(C(C)c2c(F)cccc2Cl)c(CC)c(=O)[nH]1 (racemic)
- ID50 [2]: 13.1 µM

SMILES: CCc1c(C(C)c2c(F)cccc2Cl)nc(SC2CCCC2)[nH]c1=O (racemic)
- ID50 [2]: 15.6 µM

SMILES: CCC(c1nc(SC(C)C)[nH]c(=O)c1C)c1c(F)cccc1Cl (racemic)
- ID50 [2]: 7.7 µM

SMILES: CCCSc1nc(C(CC)c2c(F)cccc2Cl)c(C)c(=O)[nH]1 (racemic)
- ID50 [2]: 3.5 µM

SMILES: CCC(C)Sc1nc(C(CC)c2c(F)cccc2Cl)c(C)c(=O)[nH]1 (racemic)
- ID50 [2]: 5.9 µM

SMILES: CCCCSc1nc(C(CC)c2c(F)cccc2Cl)c(C)c(=O)[nH]1 (racemic)
- ID50 [2]: 6.1 µM

SMILES: CCC(c1nc(SC2CCCC2)[nH]c(=O)c1C)c1c(F)cccc1Cl (racemic)
- ID50 [2]: 6 µM

SMILES: CCCSc1nc(C(C)c2c(F)cccc2F)c(C)c(=O)[nH]1 (racemic)
- ID50 [2]: 5.4 µM

SMILES: CCc1c(C(C)c2c(F)cccc2F)nc(SC(C)C)[nH]c1=O (racemic)
- ID50 [2]: 129 µM

SMILES: CCCSc1nc(C(C)c2c(F)cccc2F)c(CC)c(=O)[nH]1 (racemic)
- ID50 [2]: 2.8 µM

SMILES: CCc1c(C(C)c2c(F)cccc2F)nc(SC(C)CC)[nH]c1=O (racemic)
- ID50 [2]: 4.6 µM

SMILES: CCCCSc1nc(C(C)c2c(F)cccc2F)c(CC)c(=O)[nH]1 (racemic)
- ID50 [2]: 3 µM

SMILES: CCc1c(C(C)c2c(F)cccc2F)nc(SC2CCCC2)[nH]c1=O (racemic)
- ID50 [2]: 1.8 µM

SMILES: CCCSc1nc(C(CC)c2c(F)cccc2F)c(C)c(=O)[nH]1 (racemic)
- ID50 [2]: 3.6 µM

SMILES: CCCCSc1nc(C(CC)c2c(F)cccc2F)c(C)c(=O)[nH]1 (racemic)
- ID50 [2]: 4.6 µM

SMILES: CC[C@H](C)Sc1nc([C@H](C)c2c(F)cccc2Cl)cc(=O)[nH]1 (racemic)
- ID50 [1]: 0.649 µM
- ID50 [2]: > 20 µM
- pID50 [2]: < 4.7

SMILES: CC[C@H](C)Sc1nc([C@H](C)c2c(F)cccc2Cl)c(C)c(=O)[nH]1 (racemic)
- ID50 [1]: 0.596 µM
- Ratio EC50 [4]: 58407
- ID50 [2]: > 40 µM
- pID50 [2]: < 4.4

SMILES: CCCCSc1nc(O)c(C)c(C(C)c2c(F)cccc2F)n1 (racemic)
- ID50 [2]: 4.6 µM

SMILES: CCC(C)Sc1nc(O)c(C)c(C(C)c2c(F)cccc2F)n1 (racemic)
- ID50 [2]: 96 µM

SMILES: Cc1c(O)nc(SC(C)C)nc1C(C)c1c(F)cccc1F (racemic)
- ID50 [2]: 47 µM
